Anti-infective test results gathered from many reports (values: NIAID ChemDB through PubChem).

Shared fields: cytotoxicity tests; cell line: SupT1; read-out: CC50

CCn is the concentration with n% toxicity to the cells. Lines come from different laboratories, so protocols vary. An empty or dashed field is not shown.

SMILES	method	value
Nc1nc2c(ncn2[C@@H]2C[C@H](CO)[C@H]2CO)c(=O)[nH]1		15 µM
CCC(C)CCCCCCC[C@@H]1CC(=O)N[C@@H](CCC(=O)O)C(=O)N[C@@H](CC(C)C)C(=O)N[C@H](CC(C)C)C(=O)N[C@@H](C(C)C)C(=O)N[C@@H](CC(=O)O)C(=O)N[C@H](CC(C)C)C(=O)N[C@@H](C(C)C)C(=O)O1	WST / absorbance	92.9 µM
COC1=CC(=O)c2c(O)c(C)c3c(c2C1=O)OC(C)C3	MTT	135.2 µg/mL
CCC(C)CCCCCCCC[C@@H]1CC(=O)N[C@@H](CCC(=O)O)C(=O)N[C@@H](CC(C)C)C(=O)N[C@H](CC(C)C)C(=O)N[C@@H](C(C)C)C(=O)N[C@@H](CC(=O)O)C(=O)N[C@H](CC(C)C)C(=O)N[C@@H](CC(C)C)C(=O)O1	WST / absorbance	67.9 µM
Cc1ccc(S(=O)(=O)N2CCCN(Cc3ccccc3)CCCN(S(=O)(=O)c3ccc(C)cc3)CC(CCl)C2)cc1	trypan blue / propidium iodide	>75 µM
CC(C)=CCC/C(C)=C/CC/C(C)=C/Cc1c(O)cc2c(c1OS(=O)(=O)O)CN(C[C@@H]1O[C@@H](O)[C@@H](O)[C@H](O)[C@H]1O)C2=O	WST / absorbance	>100 µM
C=C1CN(S(C)(=O)=O)CCCN(Cc2ccccc2)CCCN(S(C)(=O)=O)C1	trypan blue / propidium iodide	>75 µM
COc1cc(O)c2c(c1O)C(=O)c1cc(C)ncc1C2=O	MTT	122.3 µg/mL
CC(C)CCCCCCCC[C@@H](O)CC(=O)N[C@@H](CCC(=O)O)C(=O)N[C@@H](CC(C)C)C(=O)N[C@H](CC(C)C)C(=O)N[C@H](C(=O)N[C@@H](CC(=O)O)C(=O)N[C@H](CC(C)C)C(=O)N[C@@H](CC(C)C)C(=O)O)C(C)C	WST / absorbance	>100 µM
CC(C)=CCC/C(C)=C/CC/C(C)=C/Cc1c(O)cc2c(c1OS(=O)(=O)O)CN(CCO)C2=O	WST / absorbance	99.7 µM
O[C@@H]1[C@H](O)[C@H](O)CO[C@H]1n1c(Br)nc2cc(Cl)c(Cl)cc21	neutral red	>104 µM
C=C1CN(S(=O)(=O)c2ccc(C)cc2)CCCN(C(C)C)CCCN(S(=O)(=O)c2ccc(C)cc2)C1	trypan blue / propidium iodide	75 µM
Nc1ccn(C[C@@H](CO)OCP(=O)(O)O)c(=O)n1		90 µM
CC(C)CCCCCCCC[C@@H]1CC(=O)N[C@@H](CCC(=O)O)C(=O)N[C@@H](CC(C)C)C(=O)N[C@H](CC(C)C)C(=O)N[C@@H](C(C)C)C(=O)N[C@@H](CC(=O)O)C(=O)N[C@H](CC(C)C)C(=O)N[C@@H](CC(C)C)C(=O)O1	WST / absorbance	83.5 µM
Cc1ccc(S(=O)(=O)N2CCCN(Cc3ccccc3)CCCN(S(=O)(=O)c3ccc(C)cc3)CC(CO)C2)cc1	trypan blue / propidium iodide	>75 µM
O=C(O)C1=CC(=C(c2ccc(O)c(C(=O)O)c2)c2ccc(O)c(C(=O)O)c2)C=CC1=O		52 µM
C=C1CN(S(=O)(=O)c2ccc(C)cc2)CCCN(Cc2cccnc2)CCCN(S(=O)(=O)c2ccc(C)cc2)C1	trypan blue / propidium iodide	>75 µM
CC(C)=CCC/C(C)=C/CC/C(C)=C/Cc1c(O)cc2c(c1O)CN(CCO)C2=O	WST / absorbance	20.4 µM
Cc1ccc(S(=O)(=O)N2CCCN(Cc3ccccc3)CCCN(S(=O)(=O)c3ccc(C)cc3)CC(=O)C2)cc1	trypan blue / propidium iodide	>75 µM
CCC(C)CCCCCCCC[C@@H]1CC(=O)N[C@@H](CCC(=O)OC)C(=O)N[C@@H](CC(C)C)C(=O)N[C@H](CC(C)C)C(=O)N[C@@H](C(C)C)C(=O)N[C@@H](CC(=O)O)C(=O)N[C@H](CC(C)C)C(=O)N[C@@H](CC(C)C)C(=O)O1	WST / absorbance	91 µM
Nc1nc2c(ncn2COC(CO)CO)c(=O)[nH]1		50 µM
C=C1CN(S(=O)(=O)c2ccc(C)cc2)CCCN(C(C)CC)CCCN(S(=O)(=O)c2ccc(C)cc2)C1	trypan blue / propidium iodide	43.1 µM

A second listing of 2 rows from above:

C=C1CN(S(=O)(=O)c2ccc(C)cc2)CCCN(C(C)CC)CCCN(S(=O)(=O)c2ccc(C)cc2)C1 ; method: trypan blue / propidium iodide ; value: 43.1 µM
Nc1nc2c(ncn2[C@@H]2C[C@H](CO)[C@H]2CO)c(=O)[nH]1 ; value: 15 µM